A mixed list of measured activities; the numbers were collected in NIAID ChemDB.

All rows: host cell toxicity; cell line: MT-4; read by: MTT; read-out: CC50

CCn is the concentration with n% toxicity to the cells. Lines come from different laboratories, so protocols vary.

structure	result
N#Cc1ccc(Nc2nc(Oc3c(Cl)cc(Cl)cc3Cl)ncc2[N+](=O)[O-])cc1	≥25 µM
CCc1c(C(C)CC2CCCCC2)nc(SCC(=O)c2ccc(OC)cc2)[nH]c1=O	31 µM
N#Cc1ccc(Nc2nccc([C@@H](O)c3ccccc3Cl)n2)cc1	36 µM
C#Cc1ccc(Nc2nccc(Oc3c(C)cc(-c4cn(Cc5cccc(C(=O)OC)c5)nn4)cc3C)n2)cc1	4.78 µM
CCOC(=O)C(=O)CC(=O)c1cccc(Oc2ccnc(Nc3ccc(C#N)cc3)n2)c1	>14 µM
NC(=O)c1ccc(NC(=O)CSc2nc3ncccc3n2-c2ccc(C3CC3)c3ccccc23)c(Br)c1	0.66 µM
Cc1cn([C@H]2C[C@H](N=[N+]=[N-])[C@@H](CO)O2)c(=O)[nH]c1=O	43.26 µM
Cc1ccc(CNC(=O)C2C(=O)N(O)C(=O)c3ccccc32)cc1	127 µM
CCOC(=O)c1cnc(N2CCN(Cc3cccc(C(N)=O)c3)CC2)nc1Oc1c(C)cc(-c2ccc(C#N)cc2)cc1C	>14.84 µM
C#Cc1ccc(Nc2nccc(Oc3c(C)cc(-c4cn(Cc5ccc(O)cc5)nn4)cc3C)n2)cc1	2.1 µM
O=C(O)c1c[nH]c2ccc(Cc3ccccc3)cc2c1=O	19 µM
CCO/N=C1\C(=O)N(CCOCCN2C(=O)/C(=N/OCC)c3cc(Cl)ccc32)c2ccc(Cl)cc21	43.85 µM
O=c1[nH]cnc2c1ncn2[C@H]1CC[C@@H](CO)O1	>212 µM
Cc1cc(C#N)cc(C)c1Oc1nc(N/N=C/C2CCN(Cc3ccc(F)cc3)CC2)nc2ccsc12	5.48 µM
CCc1c(C(C)C2CCCCC2)nc(SCC(=O)c2ccc(OC)cc2)[nH]c1=O	30 µM
Cc1cn([C@H]2C[C@H](N=[N+]=[N-])[C@@H](CO)O2)c(=O)[nH]c1=O	>6.3 µM
c1cc2ccc3ccc(CN4CCCNCCNCCCNCC4)nc3c2nc1CN1CCCNCCNCCCNCC1	>200 µg/mL
Cc1cc(C)c(Oc2ncc([N+](=O)[O-])c(Nc3ccc(C#N)cc3)n2)c(C)c1	≥252 µM
O=C([O-])c1c[nH]c2ccc(Cc3ccccc3)cc2c1=O.O=C([O-])c1c[nH]c2ccc(Cc3ccccc3)cc2c1=O.[Mg+2]	17 µM
Cc1cc(C#N)cc(C)c1Oc1nc(Nc2ccc(C#N)cc2)nc(N)c1Br	>4.6 µM
Cc1cc(/C=C/C#N)cc(C)c1Oc1nc(N/N=C/c2ccc(C#N)cc2)nc2ccsc12	96.6 µM
CCOCn1c(Sc2cccc3ccccc23)c(CC(C)C)c(=O)[nH]c1=O	36.12 µM
Cn1cc(C(=O)O)c(=O)c2cc(N)c(N3CCN(c4ccccn4)CC3)cc21	0.84 µg/mL
CC(C)(C)NC(=O)[C@@H]1C[C@@H]2CCCC[C@@H]2CN1C[C@@H](OC(=O)[C@H](Cc1ccccc1)NC(=O)OC(C)(C)C)[C@H](Cc1ccccc1)NC(=O)[C@H](CC(N)=O)NC(=O)c1ccc2ccccc2n1	>100 µM
N#Cc1ccc(Nc2nc(Oc3c(Cl)cccc3Cl)ncc2[N+](=O)[O-])cc1	≥206 µM
N#Cc1ccc(Nc2nc(Oc3ccc(-c4ccc(C#N)cc4)cc3[N+](=O)[O-])c3sccc3n2)cc1	218.8 µM
O=C(NCCCCCCNC(=O)c1cc2cc(O)c(O)cc2[nH]1)c1cc2cc(O)c(O)cc2[nH]1	171 µM
CC(C)Nc1cccnc1N1CCN(C(=O)c2cc3cc(NS(C)(=O)=O)ccc3[nH]2)CC1	>3.827 µM
C=C1[C@H](CO)[C@@H](O)C[C@@H]1n1cnc2c(=O)[nH]c(N)nc21	2.16 µM
O=C(NC1CCCC1)C1C(=O)N(O)C(=O)c2ccccc21	128.5 µM
Cc1cc(C#N)cc(C)c1Oc1nc(N/N=C/c2ccc(C#N)c(F)c2)nc2ccsc12	215 µM
N#Cc1ccc(Nc2nc(Oc3ccc(-c4ccc(C#N)cc4)cc3)c3sccc3n2)cc1	>280.8 µM
COc1ccc(-c2cc(C)c(Nc3ccnc(Nc4ccc(C#N)cc4)n3)c(C)c2)cc1	2.08 µM
CC(C)(C)NC(=O)[C@@H]1CN(Cc2cccnc2)CCN1C[C@H](C[C@@H](Cc1ccccc1)C(=O)N[C@H]1c2ccccc2C[C@H]1OC(=O)CCCCO[C@H]1O[C@H](CO)[C@@H](O)[C@H](O)[C@@H]1O)OC(=O)CCCCO[C@H]1O[C@H](CO)[C@@H](O)[C@H](O)[C@@H]1O	>50 µM
C#Cc1ccc(Nc2nccc(Oc3c(C)cc(-c4cn(CC(=O)Nc5ccc(S(C)(=O)=O)cc5)nn4)cc3C)n2)cc1	6.36 µM
CCOCn1c(Cc2cc(C)cc(C)c2)c(CC)c(=O)[nH]c1=O	>100 µg/mL
Cc1cc(C#N)cc(C)c1Oc1ncc(NC(=O)C(F)(F)F)c(Nc2ccc(C#N)cc2)n1	>276 µM
Cc1cn([C@H]2C[C@H](N=[N+]=[N-])[C@@H](CO)O2)c(=O)[nH]c1=O	8.5 µM
Cc1cc(C#N)cc(C)c1Oc1ncc([N+](=O)[O-])c(Nc2ccc(C#N)cc2)n1	≥274 µM
CC(CC1CCCCC1)c1cc(=O)[nH]c(SCC(=O)c2ccc(O)cc2)n1	31 µM
CC(C)Nc1cccnc1N1CCN(C(=O)c2cc3cc(NS(C)(=O)=O)ccc3[nH]2)CC1	>36 µM
Cc1cc(C#N)cc(C)c1Oc1nc(Nc2ccc(C#N)cc2)ncc1SCC(=O)N1CCSCC1	>208.4 µM
N#Cc1ccc(Nc2nc(Oc3ccc(-c4ccc(C#N)cc4)cc3C#N)c3sccc3n2)cc1	>265.9 µM
CC(C)(C)NC(=O)[C@@H]1C[C@@H]2CCCC[C@@H]2CN1C[C@@H](O)[C@H](Cc1ccccc1)NC(=O)[C@H](CC(N)=O)NC(=O)c1ccc2ccccc2n1	>100 µM
Cc1ccnc2c1NC(=O)c1cccnc1N2C1CC1	>15 µM
c1ncc(CN2CCCNCCNCCCNCC2)cc1CN1CCCNCCNCCCNCC1	>500 µg/mL
C#Cc1ccc(Nc2nccc(Oc3c(C)cc(-c4cn(Cc5ccc(C#N)cc5)nn4)cc3C)n2)cc1	7.18 µM
O=C(O)c1cc2cc(O)c(O)cc2[nH]1	75 µM
Cc1c(Sc2cccc3ccccc23)n(COCc2ccccc2)c(=O)[nH]c1=O	52.5 µM
C#Cc1ccc(Nc2nccc(Oc3c(C)cc(-c4cn(CC(=O)OC)nn4)cc3C)n2)cc1	10.35 µM
CC(C)c1nc(C(=O)NCc2ccc(F)cc2)c([O-])c(=O)n1C.CC(C)c1nc(C(=O)NCc2ccc(F)cc2)c([O-])c(=O)n1C.[Mg+2]	41 µM
CCOCn1c(Sc2cccc3ccccc23)c(C(C)C)c(=O)[nH]c1=O	33.2 µM
CCCCCCCCCCCCNC(=O)C1C(=O)N(O)C(=O)c2ccccc21	18.55 µM
Cc1c(OC(=O)CCCCO[C@H]2O[C@H](CO)[C@@H](O)[C@H](O)[C@@H]2O)cccc1C(=O)N[C@@H](CSc1ccccc1)[C@@H](CN1C[C@H]2CCCC[C@H]2C[C@H]1C(=O)NC(C)(C)C)OC(=O)CCCCO[C@H]1O[C@H](CO)[C@@H](O)[C@H](O)[C@@H]1O	>50 µM
Cc1cc(C#N)cc(C)c1Oc1nc(Nc2ccc(C#N)cc2)nc(N)c1Br	2.46 µM
CCOC(=O)CNS(=O)(=O)c1cc(Cl)ccc1[N+](=O)[O-]	>73 µM
O=C1C(=O)N(CCOCCN2C(=O)C(=O)c3cc(Cl)ccc32)c2ccc(Cl)cc21	184 µM
CC(C)(C)NC(=O)[C@@H]1CCCN1C(=O)[C@@H](O)[C@H](Cc1ccccc1)NC(=O)[C@H](CC(N)=O)NC(=O)COc1cccc2ccccc12	31 µg/mL
Cc1c(OC(=O)CCCCO[C@H]2O[C@H](CO)[C@@H](O)[C@H](O)[C@@H]2O)cccc1C(=O)N[C@@H](CSc1ccccc1)[C@H](O)CN1C[C@H]2CCCC[C@H]2C[C@H]1C(=O)NC(C)(C)C	>50 µM
Cc1cc(C#N)cc(C)c1Oc1nc(N/N=C/C2CCN(Cc3ccncc3)CC2)nc2ccsc12	5.52 µM
N#Cc1ccc(Nc2nc(Oc3ccc(-c4ccc(C#N)cc4)c(F)c3)c3sccc3n2)cc1	>269.9 µM
CC(CC1CCCCC1)c1cc(=O)[nH]c(SCC(=O)c2ccccc2)n1	151 µM
COC(=O)CS(=O)(=O)c1cnc(Nc2ccc(C#N)cc2)nc1Oc1c(C)cc(C#N)cc1C	>208.4 µM
Cc1cc(C#N)cc(C)c1Oc1nc(N/N=C/C2CCN(Cc3cccc(C(N)=O)c3)CC2)nc2ccsc12	4.68 µM
Nc1ccc(Cl)cc1S(=O)(=O)NCC(=O)O	>200 µM
CC(C)(C)NC(=O)[C@@H]1C[C@@H]2CCCC[C@@H]2CN1C[C@@H](O)[C@H](Cc1ccccc1)NC(=O)[C@H](CC(N)=O)NC(=O)c1ccc2ccccc2n1	>100 µM
CCCCCCCCCCCCCCCC(=O)OCC(COC(=O)CCCCCCCCCCCCCCC)OC(=O)CCC(=O)O[C@H](CN1C[C@H]2CCCC[C@H]2C[C@H]1C(=O)NC(C)(C)C)[C@H](Cc1ccccc1)NC(=O)[C@H](CC(N)=O)NC(=O)c1ccc2ccccc2n1	>100 µM
Cc1cc(C#N)cc(C)c1Oc1nc(Nc2ccc(C#N)cc2)nc(N)c1Br	2.18 µM
CCc1c(CCC2CCCCC2)nc(SCC(=O)c2ccccc2)[nH]c1=O	241 µM
Cc1cn([C@H]2C[C@H](N=[N+]=[N-])[C@@H](CO)O2)c(=O)[nH]c1=O	>93 µM
Cc1cn([C@H]2C[C@H](N=[N+]=[N-])[C@@H](CO)O2)c(=O)[nH]c1=O	24 µg/mL
CC(C)c1c(Sc2cccc3ccccc23)n(COCCO)c(=O)[nH]c1=O	77.07 µM
Nc1ccc2c(c1)C(=O)N(O)C(=O)C2C(=O)NCc1ccc(F)cc1	217 µM
Cc1cc(C#N)cc(C)c1Oc1nc(N/N=C/C2CCN(Cc3ccc(S(=O)(=O)NC4CC4)cc3)CC2)nc2ccsc12	4.03 µM
C[C@H]1C(=O)Nc2ccc(Cl)cc2S(=O)(=O)N1Cc1c(F)cccc1F	>200 µM
Cc1cc(Br)cc(C)c1Oc1ncc(NC(=O)C(F)(F)F)c(Nc2ccc(C#N)cc2)n1	>246 µM
NC(=O)c1ccc(NC(=O)CSc2nc3ncccc3n2-c2ccc(C3CC3)c3ccccc23)c(Cl)c1	0.68 µM
Cc1cc(C=O)cc(C)c1Oc1ncc(NC(=O)C(F)(F)F)c(Nc2ccc(C#N)cc2)n1	≥216 µM
Cc1ccnc2c1NC(=O)c1cccnc1N2C1CC1	>150 µM

Again, the opening 10 rows:

N#Cc1ccc(Nc2nc(Oc3c(Cl)cc(Cl)cc3Cl)ncc2[N+](=O)[O-])cc1 ; result: ≥25 µM
CCc1c(C(C)CC2CCCCC2)nc(SCC(=O)c2ccc(OC)cc2)[nH]c1=O ; result: 31 µM
N#Cc1ccc(Nc2nccc([C@@H](O)c3ccccc3Cl)n2)cc1 ; result: 36 µM
C#Cc1ccc(Nc2nccc(Oc3c(C)cc(-c4cn(Cc5cccc(C(=O)OC)c5)nn4)cc3C)n2)cc1 ; result: 4.78 µM
CCOC(=O)C(=O)CC(=O)c1cccc(Oc2ccnc(Nc3ccc(C#N)cc3)n2)c1 ; result: >14 µM
NC(=O)c1ccc(NC(=O)CSc2nc3ncccc3n2-c2ccc(C3CC3)c3ccccc23)c(Br)c1 ; result: 0.66 µM
Cc1cn([C@H]2C[C@H](N=[N+]=[N-])[C@@H](CO)O2)c(=O)[nH]c1=O ; result: 43.26 µM
Cc1ccc(CNC(=O)C2C(=O)N(O)C(=O)c3ccccc32)cc1 ; result: 127 µM
CCOC(=O)c1cnc(N2CCN(Cc3cccc(C(N)=O)c3)CC2)nc1Oc1c(C)cc(-c2ccc(C#N)cc2)cc1C ; result: >14.84 µM
C#Cc1ccc(Nc2nccc(Oc3c(C)cc(-c4cn(Cc5ccc(O)cc5)nn4)cc3C)n2)cc1 ; result: 2.1 µM